Anti-infective test results gathered from many reports (values: NIAID ChemDB through PubChem).

All rows: host cell toxicity; cells: PBMC; endpoint: CC50

An empty or dashed field is not shown. CCn is the concentration with n% toxicity to the cells. Lines come from different laboratories, so protocols vary.

| structure | read by | value |
|---|---|---|
| CCN1c2cc(C)c(C)cc2N(C)S(=O)(=O)c2cccnc21 | - | >50 µM |
| Nc1ncnc2c([C@H]3CC[C@](CO)(C(F)(F)F)C3)c[nH]c12 | MTT | >100 µM |
| CCc1cn([C@H]2CC[C@@H](CO)O2)c(=O)[nH]c1=O | - | >100 µM |
| Nc1ncnc2c1ncn2[C@H]1CC[C@@](F)(/C=C/P(=O)(O)O)C1 | MTT | 98 µM |
| Nc1nc(N)c2ncn([C@H]3CO[C@@H](CO)O3)c2n1 | - | >500 µM |
| Nc1cccc(-c2c3nc(c(-c4cccc(N)c4)c4ccc([nH]4)c(-c4cccc(N)c4)c4nc(c(-c5cccc(N)c5)c5ccc2[nH]5)C=C4)C=C3)c1 | - | >100 µM |
| Nc1ccn([C@@H]2CS[C@H](CO)O2)c(=O)n1 | - | >500 µM |
| CCCCCCCCCCCCSCC(COP(=O)([O-])OCC[N+](C)(C)C)OCCCCCCCCC(=O)OCC(=O)OC[C@H]1O[C@@H](n2cc(C)c(=O)[nH]c2=O)C[C@@H]1N=[N+]=[N-] | trypan blue | >100 µM |
| Nc1nc2c(ncn2C2CC(CCP(=O)(O)O)(C(F)(F)F)CO2)c(=O)[nH]1 | MTT | >100 µM |
| CCOc1ccc(-c2c3nc(c(-c4ccc(OCC)cc4)c4ccc([nH]4)c(-c4ccc(OCC)cc4)c4nc(c(-c5ccc(OCC)cc5)c5ccc2[nH]5)C=C4)C=C3)cc1 | - | >100 µM |
| Fc1ccccc1CCNC(=S)Nc1ccc(Br)cn1 | - | >100 µM |
| NCCN1CCNCc2ccc3ccc4ccc(nc4c3n2)CNCC1 | - | >100 µM |
| COc1cc(OC)nc(N2C(=O)CSC2c2c(F)cccc2Cl)n1 | MTT | 55 µg/mL |
| Cc1ccnc2c1NC(=O)c1cccnc1N2C1CC1 | tetrazolium | 5.1 µM |
| O=c1ccn([C@H]2C=C[C@@H](CO)O2)c(=O)[nH]1 | - | >100 µM |
| Oc1ccc(-c2c3nc(c(-c4ccc(O)cc4)c4ccc([nH]4)c(-c4ccc(O)cc4)c4nc(c(-c5ccc(O)cc5)c5ccc2[nH]5)C=C4)C=C3)cc1 | - | >100 µM |
| COc1nc(N)nc2c1ncn2[C@H]1CO[C@@H](CO)O1 | MTT | >100 µM |
| Cc1cn([C@H]2C[C@@H](CO)[C@@H](CO)O2)c(=O)[nH]c1=O | trypan blue | >100 µM |
| CC(C)Nc1nc(N)nc2c1ncn2[C@H]1CO[C@@H](CO)O1 | MTT | 97.3 µM |
| Cc1cn([C@H]2CC[C@@H](CO)O2)c(=O)[nH]c1=O | - | >100 µM |
| O=c1[nH]cnc2c1ncn2[C@H]1CC[C@@](F)(CCP(=O)(O)O)C1 | MTT | 80 µM |
| CO[C@H]1O[C@@H](n2ccc(=O)[nH]c2=O)C[C@@H]1N=[N+]=[N-] | - | >100 µM |
| Cc1cn([C@H]2C[C@@H](CCl)[C@@H](CO)O2)c(=O)[nH]c1=O | trypan blue | >100 µM |
| COc1cc(OC)cc(-c2c3nc(c(-c4cc(OC)cc(OC)c4)c4ccc([nH]4)c(-c4cc(OC)cc(OC)c4)c4nc(c(-c5cc(OC)cc(OC)c5)c5ccc2[nH]5)C=C4)C=C3)c1 | - | >100 µM |
| CN=C1CN=C(c2ccc[nH]2)c2cc(Cl)ccc2N1 | - | >40 µM |
| Nc1nc2c(ncn2C2CC(/C=C/P(=O)(O)O)(C(F)(F)F)CO2)c(=O)[nH]1 | MTT | >100 µM |
| Cc1cn([C@H]2C[C@H](F)[C@@H](CO)O2)c(=S)[nH]c1=O | - | >200 µM |
| Nc1ncnc2c1ncn2CCOCP(=O)(O)O | MTT | >100 µM |
| Cc1cn([C@H]2C[C@H](N=[N+]=[N-])[C@@H](CO)O2)c(=O)[nH]c1=O | MTT | >100 µM |
| Nc1ncnc2c1ncn2CCOCP(=O)(O)O | MTT | >100 µM |
| Cc1cn([C@H]2C[C@H](N=[N+]=[N-])[C@@H](CO)O2)c(=O)[nH]c1=O | trypan blue | >100 µM |
| [N-]=[N+]=Nc1nc(N)nc2c1ncn2[C@H]1CO[C@@H](CO)O1 | MTT | >100 µM |
| O=C(OC[C@H]1O[C@@H](n2cc(C(=O)Nc3ccc(Cl)cc3)c(=O)c3cc(Cl)ccc32)[C@H](OC(=O)c2ccccc2)[C@@H]1OC(=O)c1ccccc1)c1ccccc1 | XTT | >1000 µM |
| c1cc2ccc3ccc4nc3c2nc1CNCCNCCNC4 | - | >100 µM |
| Nc1ccn([C@H]2CC[C@@H](CO)O2)c(=O)n1 | - | 35.5 µM |
| CN(C)c1ccc(-c2c3nc(c(-c4ccc(N(C)C)cc4)c4ccc([nH]4)c(-c4ccc(N(C)C)cc4)c4nc(c(-c5ccc(N(C)C)cc5)c5ccc2[nH]5)C=C4)C=C3)cc1 | - | >100 µM |
| CCN1c2ncccc2N(C)C(=S)c2sc3cccnc3c21 | - | 31 µM |
| COC(=O)[C@H](C)NP(=O)(OC[C@@H]1C=C[C@H](n2cc(C)c(=O)[nH]c2=O)O1)Oc1ccc(Br)cc1 | tetrazolium | >100 µM |
| CC(C)[C@H](N)C(=O)OC[C@@H]1OC[C@H](n2cnc3c(N)nc(N)nc32)O1 | MTT | >100 µM |
| Cc1cn([C@H]2C[C@H](F)[C@@H](CP(=O)(O)O)O2)c(=S)[nH]c1=O | - | >200 µM |
| CC(C)(C)c1cc(-c2c3nc(c(-c4cc(C(C)(C)C)c(O)c(C(C)(C)C)c4)c4ccc([nH]4)c(-c4cc(C(C)(C)C)c(O)c(C(C)(C)C)c4)c4nc(c(-c5cc(C(C)(C)C)c(O)c(C(C)(C)C)c5)c5ccc2[nH]5)C=C4)C=C3)cc(C(C)(C)C)c1O | - | >100 µM |
| Cc1cn([C@H]2C[C@H](N=[N+]=[N-])[C@@H](CO)O2)c(=O)[nH]c1=O | MTT | >100 µM |
| COc1ccc(-c2c3nc(c(-c4ccc(OC)c(OC)c4)c4ccc([nH]4)c(-c4ccc(OC)c(OC)c4)c4nc(c(-c5ccc(OC)c(OC)c5)c5ccc2[nH]5)C=C4)C=C3)cc1OC | - | >100 µM |
| Cc1ccnc2c1NC(=O)c1cccnc1N2C1CC1 | MTT | 122 µg/mL |
| Nc1ccc(-c2c3nc(c(-c4ccc(N)cc4)c4ccc([nH]4)c(-c4ccc(N)cc4)c4nc(c(-c5ccc(N)cc5)c5ccc2[nH]5)C=C4)C=C3)cc1 | - | >200 µM |
| Cc1cn([C@H]2C[C@H](N=[N+]=[N-])[C@@H](CO)O2)c(=O)[nH]c1=O | - | >0.08 µM |
| Oc1cccc(O)c1-c1c2nc(c(-c3c(O)cccc3O)c3ccc([nH]3)c(-c3c(O)cccc3O)c3nc(c(-c4c(O)cccc4O)c4ccc1[nH]4)C=C3)C=C2 | - | 74 µM |
| Nc1ncc([C@H]2CC[C@@H](CO)O2)c(=O)[nH]1 | - | >100 µM |